Experimental data published in publication PMC10823733, “Promising antibacterial efficacy of arenicin peptides against the emerging opportunistic pathogen Mycobacterium abscessus” (Journal of Biomedical Science, 2024).
Positions of bridges follow the written chain, without caps; N, C: chain ends. Residues, ends and D or L forms follow the SMILES beside them.

Test system: A498 cells
Test: Cytotoxic assay on human cells (resazurin)
Assay type: cell-based
Method: The toxicity of each peptide was evaluated on human cell lines using a resazurin assay as previously described. Human lung epithelial cells BEAS-2B (ATCC CRL-9609), liver cells HepG2 (ATCC HB-8065), and kidney cells A498 (ATCC HTB-44) were used. All cells were cultured in Dulbecco's modified essential medium (DMEM) supplemented with 10% heat-inactivated fetal calf serum (FBS, Thermo Fisher Scientific), and 1% L-glutamine (Thermo Fisher Scientific) (DMEM^FBS) at 37 °C in a 5% CO2 incubator to subconfluent concentrations. Cells were detached with trypsin–EDTA solution (Thermo Fisher Scientific), and around 1 × 10^4 cells/well were seeded in 96-well flat-bottom microplates (Greiner Bio-One) with a lid, and cultured for additional 48–72 h at 37 °C and 5% CO2 until cell confluence. The medium was removed, and 100 µL of serial two-fold dilutions of the peptides in DMEM^FBS were added to each well. Following a 48 h-incubation period at 37 °C and 5% CO2, cell viability was evaluated using the resazurin assay as described above. Fluorescence of the resazurin metabolite resorufin (λex/λem = 530/590 nm) was measured after 2 h incubation at 37 °C and 5% CO2 in the dark, with a microplate reader (Biotek, Synergy Mx, Colmar, France). […]

`CC(C)[C@@H]1NC(=O)CNC(=O)[C@H](CC(N)=O)NC(=O)[C@H](CCCNC(=N)N)NC(=O)[C@H](Cc2ccc(O)cc2)NC(=O)[C@H](C(C)C)NC(=O)[C@@H]2CSSC[C@H](NC(=O)[C@H](C(C)C)NC(=O)[C@H](CCCNC(=N)N)NC1=O)C(=O)N[C@@H](Cc1ccc(O)cc1)C(=O)N[C@@H](CCCNC(=N)N)C(=O)N[C@@H](CCCNC(=N)N)C(=O)N[C@H](C(=O)N[C@@H](CC(N)=O)C(=O)O)CSSC[C@H](NC(=O)[C@H](Cc1ccccc1)NC(=O)CN)C(=O)N[C@@H](Cc1c[nH]c3ccccc13)C(=O)N[C@@H](Cc1ccc(O)cc1)C(=O)N[C@@H](C(C)C)C(=O)N2` [Ar-3] (H-GFCWYVCVYRNGVRVCYRRCN-OH; disulfide 3-20, 7-16) was tested, and the “TIA498 (therapeutic index)” value (CC50 on A498 divided by MIC50, R variant) was 1.0 and the “TIA498 (therapeutic index)” value (CC50 on A498 divided by MIC50, S variant) was 8.8.
